# Results deposited as PubChem BioAssay AID1224833 (University of Georgia, 2016).
# Test: 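Host factors restraining rotavirus as candidate antiviral genes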 (primary screen)
# System: monkey MA104 kidney cells
# Reagent: siRNA pool against human genes, 50 nM
# Timing: 48 h knock-down before infection; read 24 h after infection
# Challenge: infection with rotavirus strain RV3 two days after transfection; infectious dose for this stage not given
# Detection: 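Rotavirus antigen per well by fluorescent immunoassay, normalised to non-targeting control wells on each plate and given as a standard z-score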
# Scale: z-score vs non-targeting control: higher = more rotavirus replication than with non-targeting control
# Rule for the call: In these data the active calls have z-score vs non-targeting control at about -1 or lower, or at about 1 or higher
# Meaning of the calls: active = z-score beyond 1 either way; inactive = z-score within 1 of zero
# This is a random part of about 12,000 reagents. About 5,600 of all reagents (46%) were called active. 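Active calls cover z-scores past 1 in both directions, so they include lowered as well as raised rotavirus replication.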 No sequences are given here.
target gene,z-score vs non-targeting control,activity call
PSD3,-1.87,active
SNAPIN,-0.293,inactive
SOX17,-1.61,active
DMP1,-0.47,inactive
SLC66A2,-0.0229,inactive
IFNW1,-0.865,inactive
CNOT6L,-2.82,active
CLDN14,-0.601,inactive
DEFB103B,-0.418,inactive
TTLL1,2.91,active
AFG1L,-0.555,inactive
OR51G1,-1.15,active
ANO8,-0.541,inactive
EDA,-0.788,inactive
SLFNL1,0.656,inactive
TCTN3,0.0162,inactive
HOOK2,-0.691,inactive
CTNND1,-0.681,inactive
SLCO1B7,-2.18,active
C9orf78,-0.185,inactive
XAGE2,-0.64,inactive
SLCO2B1,0.102,inactive
CD7,-1.54,active
RPL35A,-1.94,active
TPRKB,-0.492,inactive
HYCC2,1.82,active
WDR83,0.157,inactive
SORCS2,-1.22,active
HSPA2,-2.16,active
YARS2,1.49,active
CBR3,-1.28,active
AP2A2,-0.38,inactive
HOMEZ,0.421,inactive
FLOT2,-2.2,active
SERTAD2,-0.882,inactive
SLC10A3,-0.926,inactive
QTMAN,-1.26,active
MTNAP1,0.792,inactive

Laid out differently: 7 of the entries above
target gene	z-score vs non-targeting control	activity call
IFNW1	-0.865	inactive
CNOT6L	-2.82	active
CLDN14	-0.601	inactive
DEFB103B	-0.418	inactive
TTLL1	2.91	active
AFG1L	-0.555	inactive
OR51G1	-1.15	active

Continued:
target gene,z-score vs non-targeting control,activity call
NOVA2,0.319,inactive
MRM2,-1.01,active
SEMA4G,-2.28,active
COQ7,-0.525,inactive
PRPF38A,-0.891,inactive
SI,1.61,active
SWAP70,0.492,inactive
CD8B,-0.59,inactive
PSPC1,-0.142,inactive
YIPF4,-1.08,active
DCAF16,-1.29,active
EIF3D,-1.53,active
FAM107B,0.913,inactive
CDH18,-1.28,active
MAPRE2,-1.45,active
TTC39B,0.921,inactive
NSRP1,1.01,active
H1-6,0.232,inactive
FAM199X,-0.903,inactive
ZSCAN22,1.01,active
NDUFS1,-0.722,inactive
ZNF268,-0.523,inactive
SPATA32,-1.72,active
TBCE,-0.0111,inactive
OR52A1,1.69,active
PLAAT5,-0.154,inactive
NKIRAS2,-0.963,inactive
ZBTB5,-0.693,inactive
BIRC5,0.574,inactive
TSPAN32,-1.17,active
VGLL2,-2.34,active
EMSY,0.724,inactive
EARS2,1.4,active
SMOX,-1.74,active
ABI2,0.969,inactive
TANK,0.698,inactive
ACBD3,-1.11,active
